Anti-infective test results gathered from many reports (values: NIAID ChemDB through PubChem).

Shared fields: tests in culture; species: Rhinovirus; cell line: HeLa; read-out: EC50

Lines come from different laboratories, so protocols vary. ECn is the concentration giving n% inhibition of infection, replication or growth.

smiles,strain or isolate,method,value
CS(=O)(=O)c1ccc(NCc2ccc(Cl)c(Cl)c2)nc1,HTYPE NK'S,cytopathic effect,5 µg/mL
C#CCOc1cc(OC)ccc1-c1cc(N(CC)CC)no1,Serotype 70 (group A),cytopathic effect,>40 µM
CCOc1cc(CCCOc2c(C)cc(-c3noc(C)n3)cc2C)on1,Serotype 1B,cytopathic effect,0.015 µg/mL
CCc1ccc(CCCOc2cc(C)c(-c3noc(C(F)(F)F)n3)c(C)c2)nn1,serotypes 3 4 5 9 16 18 38 66 75 67,cytopathic effect,0.515 µg/mL
CSc1ccc(Cc2ccc(S(C)(=O)=O)cn2)cc1,TYPE 2,cytopathic effect,5 µg/mL
Cc1cc(OCCCc2ccc(F)nn2)cc(C)c1-c1noc(C(F)(F)F)n1,serotypes 3 4 5 9 16 18 38 66 75 67,cytopathic effect,0.08 µg/mL
CCOc1cc(OC)ccc1-c1cc(N(CC)CC)no1,Serotype 2,cytopathic effect,1.7 µM
CS(=O)(=O)c1ccc(NCc2ccc(Cl)cc2)nc1,TYPE 1A,cytopathic effect,3.1 µg/mL
CCCc1ccc(CCCOc2ccc(-c3noc(C4CC4)n3)c(C)c2)nn1,serotypes 3 4 5 9 16 18 38 66 75 67,cytopathic effect,0.14 µg/mL
CS(=O)(=O)c1ccc(Cc2ccc(Cl)c(Cl)c2)nc1,TYPE 33,cytopathic effect,1.3 µg/mL
CCc1ccc(CCCOc2ccc(-c3noc(C(F)(F)F)n3)c(C)c2)nn1,serotypes 3 4 5 9 16 18 38 66 75 67,cytopathic effect,0.08 µg/mL
CS(=O)(=O)c1ccc(Oc2ccc(C(=O)c3ccccc3)cc2)nc1,TYPE 21,cytopathic effect,>10 µg/mL
CCN(CC)c1cc(-c2ccc(OC)cc2OC)on1,Serotype 2,cytopathic effect,2.1 µM
Cc1nc(-c2cc(C)c(OCCCc3cc(C4CC4)no3)c(C)c2)no1,Serotype 25,cytopathic effect,0.006 µg/mL
CS(=O)(=O)c1cccnc1Oc1ccc(C(=O)c2ccccc2)cc1,TYPE 64,cytopathic effect,>10 µg/mL
COc1ccc(-c2cc(N3CCCC3)no2)c(O)c1,Serotype 9 (group B),cytopathic effect,>384 µM
CN(C)c1ccc(Cc2ccc(S(C)(=O)=O)cn2)cc1,TYPE 2,cytopathic effect,>10 µg/mL
COCc1cc(CCCOc2c(Cl)cc(-c3noc(C)n3)cc2Cl)on1,Serotype 21,cytopathic effect,0.009 µg/mL
Cc1cc(CCCCCOc2c(Cl)cc(C3=NCCO3)cc2Cl)on1,TYPE 2,plaque count,0.09 µg/mL
CCOc1ccc(-c2cc(N3CCCCC3)no2)c(O)c1,Serotype 14,cytopathic effect,>347 µM

The first 2 rows once more:

{"smiles": "CS(=O)(=O)c1ccc(NCc2ccc(Cl)c(Cl)c2)nc1", "strain or isolate": "HTYPE NK'S", "method": "cytopathic effect", "value": "5 µg/mL"}
{"smiles": "C#CCOc1cc(OC)ccc1-c1cc(N(CC)CC)no1", "strain or isolate": "Serotype 70 (group A)", "method": "cytopathic effect", "value": ">40 µM"}